Kdimer by position in the HIV-1 leader RNA

Data from the supplement of Ye et al. 2022, doi:10.1038/s41594-022-00746-2.

The 5' region of HIV-1 NL4-3 RNA (positions 1-437):
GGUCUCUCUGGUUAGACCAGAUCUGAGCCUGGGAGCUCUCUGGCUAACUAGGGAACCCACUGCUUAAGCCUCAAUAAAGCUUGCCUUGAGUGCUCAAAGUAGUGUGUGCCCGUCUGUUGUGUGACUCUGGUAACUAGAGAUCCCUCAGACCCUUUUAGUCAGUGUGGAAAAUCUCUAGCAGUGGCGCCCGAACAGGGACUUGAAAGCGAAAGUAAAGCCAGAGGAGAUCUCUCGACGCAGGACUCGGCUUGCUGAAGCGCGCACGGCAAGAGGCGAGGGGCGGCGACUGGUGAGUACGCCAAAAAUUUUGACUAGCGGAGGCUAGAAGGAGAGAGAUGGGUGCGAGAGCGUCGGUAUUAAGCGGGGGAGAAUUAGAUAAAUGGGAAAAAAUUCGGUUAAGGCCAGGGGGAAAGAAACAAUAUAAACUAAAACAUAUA

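Randomly mutated transcripts starting with one, two or three G (1G, 2G, 3G), capped or uncapped, were folded for 30 min at 37 °C. Monomer and dimer bands were cut from native gels after folding in high salt (300 mM KCl, 5 mM MgCl2) or low salt (40 mM KCl, 0.1 mM MgCl2). Kdimer compares mutation frequencies in monomer and dimer, corrected for sequencing errors.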

Values are log2 Kdimer, the median over the changes at each position: higher means that changes there hinder dimer formation, below 0 that they favour it. Sample: 2G capped high-salt. One numbering serves 1G, 2G and 3G. A position is written with its base where known.

position | domain | 2G capped high-salt
U253 | SL1 | 1.93
U100 | PolyA | 0.04
U117 | none | -0.23
C38 | TAR | -0.18
G375 | none | 0.12
U422 | none | 0.03
506 | none | -0.05
C207 | PBS | -0.28
A269 | SL1 | 1.57
G298 | SL2 | -0.40
442 | none | 0.00
G234 | none | 0.81
A192 | PBS | -0.04
A421 | none | 0.06
C189 | PBS | 0.10
A54 | TAR | -0.54
C284 | SL2 | 0.27
A388 | none | 0.04
C260 | SL1 | 4.44
A332 | none | -0.03
507 | none | 0.09
488 | none | -0.01
C349 | none | -0.25
C362 | none | 0.25
G270 | SL1 | 1.05
A227 | CU | 1.49
A311 | none | 0.61
U115 | none | -0.05
503 | none | 0.04
C173 | PBS | -0.14
C299 | SL2 | -0.06
G164 | PBS | 0.00
A66 | PolyA | -0.16
447 | none | 0.23
A225 | none | -0.06
476 | none | 0.07
466 | none | 0.37
C114 | none | -0.01
C193 | PBS | 0.23
478 | none | -0.05
475 | none | -0.02
A147 | PBS | 0.01
U306 | none | 0.19
G240 | none | -0.21
C29 | TAR | -0.05
A235 | none | -0.74
A256 | SL1 | 1.04
G395 | none | -0.04
G183 | PBS | 0.07
U131 | PAS | 0.19
G195 | PBS | 0.63
A132 | PBS | -0.11
G181 | PBS | -0.17
A371 | none | 0.01
C264 | SL1 | 1.98
C152 | PBS | 0.04
A415 | none | -0.01
G224 | none | 0.18
G246 | SL1 | 1.08
G186 | PBS | -0.17
A387 | none | 0.02
G363 | none | 0.11
440 | none | 0.14
489 | none | 0.00
C28 | TAR | -0.53
C352 | none | 0.21
C187 | PBS | -0.02
C218 | antiPAS | -0.61
G99 | PolyA | -0.08
G394 | none | 0.02
A404 | none | 0.01
A47 | TAR | 0.04
U308 | none | 0.15
G265 | SL1 | 2.64
U113 | none | -0.23
G257 | SL1 | 3.47
G241 | none | -0.09
U309 | none | 0.29
C426 | none | 0.03
G223 | antiPAS | 0.08
G208 | PBS | -0.09
G339 | AUG | 0.08
A314 | SL3 | 0.37
484 | none | -0.07

Extract of 10 entries:

position	domain	2G capped high-salt
A371	none	0.01
C207	PBS	-0.28
U422	none	0.03
C260	SL1	4.44
C352	none	0.21
475	none	-0.02
C173	PBS	-0.14
A132	PBS	-0.11
440	none	0.14
G363	none	0.11

The source gives no letters past position 437.